Tested on: CD8+ cells
Test: Two color FACS (CD62L, CFSE) of peptide-stimulated CD8+ cells
Type: cell-based, human
Details: Donor 1 CD8+ cells, 20 additional days in IL-2

With “M1: influenza matrix CTL epitope M1: 58-66, positive control” the “CD62L+ cells in the resulting population” value was 21%.

From patent publication US10239916B2, “Controlled modulation of amino acid side chain length of peptide antigens” (Board of Regents, The University of Texas System, priority 2002, dated 2019)
